Drawing on PMC11729419, “Thiol-Reactive or Redox-Active: Revising a Repurposing Screen Led to a New Invalidation Pipeline and Identified a True Noncovalent Inhibitor Against Papain-like Protease from SARS-CoV-2” (ACS Pharmacology & Translational Science, 2024), this text covers IC50 for 1 molecule.

The structures appear in SMILES notation. Where two headings read alike, the source gives them in different places.

The target in this assay is SARS-CoV-2 PLpro-NAB (Severe acute respiratory syndrome coronavirus 2, UniProt P0DTD1). The experiment in a line: biochemical. To be noted: Table S1.

One may read the IC50 as the concentration needed to halve the response being measured. On to `C[C@H]1COC2=C1C(=O)C(=O)c1c2ccc2c1CCCC2(C)C` [Cryptotanshinone], for which the IC50 is above 20 µM (DTT buffer, read-out: HP PLpro-NAB SARS-CoV-2 IC50 [µM] triplicates DTT BUFFER) and above 20 µM (L-cysteine buffer, read-out: HP PLpro-NAB SARS-CoV-2 IC50 [µM] duplicates L-CYS BUFFER).
